We go through six molecules from patent US20200024330A1.

Holding throughout (assay): cell-based or functional assay
The target of test [1] is HIV-1 Env of the clade F pseudoviruses of the cross-clade 162-pseudovirus panel (n=15).
For test [2], the target named is HIV-1 clade D pseudoviruses (Env) of the cross-clade 162-pseudovirus panel, n=25.
Test [3] has as its target HIV-1 Env of the clade C pseudoviruses of the cross-clade 162-pseudovirus panel (n=27).
Test [4] deals with HIV-1 clade A pseudoviruses (Env) of the cross-clade 162-pseudovirus panel, n=26.
Test [5] has as its target HIV-1 pseudovirus panel of Table 52.
Test [6] has as its target HIV-1 clade F pseudoviruses (Env) of the cross-clade 162-pseudovirus panel, n=15.
In test [7] the target is HIV-1 clade C pseudoviruses (Env) of the cross-clade 162-pseudovirus panel, n=27.
The target in test [8] is All HIV-1 pseudoviruses (Env) of the cross-clade 162-pseudovirus panel, n=162.
Test [9] deals with HIV-1 Env of the clade D pseudoviruses of the cross-clade 162-pseudovirus panel (n=25).
The target in test [10] is HIV-1 Env of the clade AE pseudoviruses of the cross-clade 162-pseudovirus panel (n=10).
Test [11] deals with HIV-1 Env of the clade G pseudoviruses of the cross-clade 162-pseudovirus panel (n=15).
Test [12] has as its target 162-pseudovirus panel representing all major circulating HIV-1 subtypes.
The target of test [13] is HIV-1 Env of the clade B pseudoviruses of the cross-clade 162-pseudovirus panel (n=31).
For test [14], the target named is HIV-1 clade G pseudoviruses (Env) of the cross-clade 162-pseudovirus panel, n=15.
Test [15] has as its target HIV-1 Env of the clade A pseudoviruses of the cross-clade 162-pseudovirus panel (n=26).
Test [16] addresses HIV-1 Env of the clade AG pseudoviruses of the cross-clade 162-pseudovirus panel (n=10).
The target in test [17] is HIV-1 clade B pseudoviruses (Env) of the cross-clade 162-pseudovirus panel, n=31.
The target in test [18] is HIV-1 Env of all pseudoviruses of the cross-clade 162-pseudovirus panel (n=162).

B1: 5141_B17 (PGT-126) (antibody, V domains shown)
VH: QPQLQESGPGLVEASETLSLTCTVSGDSTAACDYFWGWVRQPPGKGLEWIGGLSHCAGYYNTGWTYHNPSLKSRLTISLDTPKNQVFLKLNSVTAADTAIYYCARFDGEVLVYHDWPKPAWVDLWGRGTLVTVSS
VL: QSALTQPPSASGSPGQSISISCTGTSNRFVSWYQQHPGKAPKLVIYGVNKRPSGVPDRFSGSKSGNTASLTVSGLQTDDEAVYYCSSLVGNWDVIFGGGTKLTVL
For B1, the Median IC50 (µg/ml) against viruses neutralized with an IC50 <50 µg/ml in [1] came to 1 µg/mL; in test [3], 0.96 µg/mL; in [8] it was 0.17 µg/mL; in [9], 0.33 µg/mL; in test [10], 19.6 µg/mL; in test [11] it was 0.17 µg/mL. For the same molecule, the Median IC50 (µg/ml) against viruses neutralized with an IC50 <50 µg/ml in [12] is 0.04 µg/mL; in test [13], 0.17 µg/mL. Besides, the Percent viruses neutralized with an IC50 <50 µg/ml turned out to be 36% in test [2]; 50% in test [4]; 27% in test [6]; 48% in test [7]; 20% in [14]. In test [5], this molecule gave a median IC50, neutralizing activity over the panel of 0.02 µg/mL. For the same molecule, the Percent viruses neutralized, IC50 <0.1 µg/ml in [12] amounted to 40%. This molecule displayed a Percent viruses neutralized, IC50 <1 µg/ml in [12] of 50%. For the same molecule, the Percent viruses neutralized, IC50 <50 µg/ml in test [12] stood at 60%.

B2: 5145_B14 (PGT-127) (antibody, V domains shown)
VH: QPQLQESGPGLVEASETLSLTCTVSGDSTGRCNYFWGWVRQPPGKGLEWIGSLSHCRSYYNTDWTYHNPSLKSRLTISLDTPKNQVFLRLTSVTAADTATYYCARFGGEVLVYRDWPKPAWVDLWGRGTLVVTVSS
VL: QSALTQPPSASGSPGQSITISCTGTSNNFVSWYQQYPGKAPKLVIYEVNKRPSGVPDRFSGSKSGSTASLTVSGLQADDEGVYYCSSLVGNWDVIFGGGTKLTVL
As for B2, the Median IC50 (µg/ml) against viruses neutralized with an IC50 <50 µg/ml in test [1] was 0.86 µg/mL; in test [3], 7.99 µg/mL; in test [8], 0.46 µg/mL; in test [9], 0.18 µg/mL; in test [11], 0.67 µg/mL; in [15], 0.16 µg/mL. In addition, the Median IC50 (µg/ml) against viruses neutralized with an IC50 <50 µg/ml stood at 0.08 µg/mL in [12], 0.24 µg/mL in test [16] and 0.36 µg/mL in test [13]. In addition, the Percent viruses neutralized with an IC50 <50 µg/ml was 28% in [2]; 46% in [4]; 13% in test [6]; 38% in test [7]; 20% in [14]. The molecule further showed a Percent viruses neutralized, IC50 <0.1 µg/ml in test [12] of 27%. Further, the Percent viruses neutralized, IC50 <1 µg/ml in [12] is 37%. Besides, the Percent viruses neutralized, IC50 <50 µg/ml in test [12] was determined as 50%.

B3: 4838_L06 (PGT-121) (antibody, V domains shown)
VH: QMQLQESGPGLVKPSETLSLTCSVSGASISDSYWSWIRRSPGKGLEWIGYVHKSGDTNYSPSLKSRVNLSLDTSKNQVSLSLVAATAADSGKYYCARTLHGRRIYGIVAFNEWFTYFYMDVWGNGTQVTVSS
VL: SDISVAPGETARISCGEKSLGSRAVQWYQHRAGQAPSLIIYNNQDRPSGIPERFSGSPDSPFGTTATLTITSVEAGDEADYYCHIWDSRVPTKWVFGGGTTLTVL
With B3, the Percent viruses neutralized with an IC50 <50 µg/ml in test [2] amounted to 36%; in test [4] it was 50%; in test [17], 81%; in [7], 67%. In addition, the median IC50, neutralizing activity over the panel in [5] is 0.04 µg/mL. Also, the Median IC50 (µg/ml) against viruses neutralized with an IC50 <50 µg/ml worked out at 0.12 µg/mL in test [9], 0.03 µg/mL in test [12] and 0.56 µg/mL in test [16]. In test [12], this molecule yielded a Percent viruses neutralized, IC50 <0.1 µg/ml of 44%. This molecule came in with a Percent viruses neutralized, IC50 <1 µg/ml in test [12] of 57%. In addition, in test [12], the Percent viruses neutralized, IC50 <50 µg/ml was determined as 70%.

B4: 4877_D15 (PGT-122) (antibody, V domains shown)
VH: QVHLQESGPGLVKPSETLSLTCNVSGTLVRDNYWSWIRQPLGKQPEWIGYVHDSGDTNYNPSLKSRVHLSLDKSKNLVSLRLTGVTAADSAIYYCATTKHGRRIYGVVAFKEWFTYFYMDVWGKGTSVTVSS
VL: TFVSVAPGQTARITCGEESLGSRSVIWYQQRPGQAPSLIIYNNNDRPSGIPDRFSGSPGSTFGTTATLTITSVEAGDEADYYCHIWDSRRPTNWVFGEGTTLIVL
For the molecule B4, the Median IC50 (µg/ml) against viruses neutralized with an IC50 <50 µg/ml in [1] was found to be 5.53 µg/mL; in test [8], 0.26 µg/mL; in test [9], 0.11 µg/mL; in [15] it was 0.33 µg/mL; in test [12], 0.05 µg/mL; in test [16], 0.97 µg/mL. The Percent viruses neutralized with an IC50 <50 µg/ml in test [2] was determined as 32%; in test [4] it was 50%; in test [17], 77%; in [6] it was 73%; in test [7] it was 59%. Moreover, in [5], the median IC50, neutralizing activity over the panel stood at 0.08 µg/mL. Moreover, the Percent viruses neutralized, IC50 <0.1 µg/ml in test [12] came to 36%. Also, in test [12], the Percent viruses neutralized, IC50 <1 µg/ml was found to be 48%. Moreover, the Percent viruses neutralized, IC50 <50 µg/ml in test [12] was 65%.

B5: 4858_P08 (PGT-123) (antibody, V domains shown)
VH: QLHLQESGPGLVKPPETLSLTCSVSGASINDAYWSWIRQSPGKRPEWVGYVHHSGDTNYNPSLKRRVTFSLDTAKNEVSLKLVDLTAADSATYFCARALHGKRIYGIVALGELFTYFYMDVWGKGTAVTVSS
VL: SSMSVSPGETAKISCGKESIGSRAVQWYQQKPGQPPSLIIYNNQDRPAGVPERFSASPDFRPGTTATLTITNVDAEDEADYYCHIYDARGGTNWVFDRGTTLTVL
Regarding B5, the Median IC50 (µg/ml) against viruses neutralized with an IC50 <50 µg/ml in [1] is 0.74 µg/mL; in test [8], 0.18 µg/mL; in test [9], 0.13 µg/mL; in test [12] it was 0.03 µg/mL; in test [16], 2.27 µg/mL. The Percent viruses neutralized with an IC50 <50 µg/ml is 32% in test [2]; 50% in test [4]; 77% in test [17]; 53% in [6]; 63% in test [7]; 47% in test [14]. In test [5], this molecule had a median IC50, neutralizing activity over the panel of 0.04 µg/mL. Also, in test [12], the Percent viruses neutralized, IC50 <0.1 µg/ml was 40%. In addition, in test [12], the Percent viruses neutralized, IC50 <1 µg/ml is 54%. In test [12], the Percent viruses neutralized, IC50 <50 µg/ml amounted to 67%.

B6: 5345_I01 (PGT-137) (antibody, V domains shown)
VH: EVHLEESGPGLVRPSETLSLTCTASGGSIRGGEWGDSDYHWGWVRHSPEKGLEWIGSIHWRGTTHYNAPFRGRGRLSIDLSRNQFSLRLTSVTAEDTAVYYCVKHKYHDIVMVVPIAGWFDPWGQGLQVTVSS
VL: EIMMTQSPAILSVSPGDRATLSCRASQSVKNNLAWYQKRPGQAPRLLIFDTSSRASGIPARFSGGGSGTEFTLTVNSMQSEDFATYYCQQYEEWPRTFGQGTKVEIK
Turning to B6, the Median IC50 (µg/ml) against viruses neutralized with an IC50 <50 µg/ml in test [2] was determined as 16.1 µg/mL; in [4], 2.54 µg/mL; in [6], 21.1 µg/mL; in test [7], 1.32 µg/mL; in [8] it was 2.1 µg/mL; in test [12] it was 3.46 µg/mL. For the same molecule, in [14], the Median IC50 (µg/ml) against viruses neutralized with an IC50 <50 µg/ml amounted to 1.45 µg/mL. The same molecule registered a Percent viruses neutralized, IC50 <0.1 µg/ml in test [12] of 4%. For the same molecule, in test [12], the Percent viruses neutralized, IC50 <1 µg/ml was determined as 8%. The molecule also displayed a Percent viruses neutralized, IC50 <50 µg/ml in test [12] of 22%. The molecule further had a Median IC50 (µg/ml) against all viruses in [18] of 50 µg/mL.
